Data: article PMC6770890

Target: T1, H-NS (UniProt A0A0F6B244)
T1 sequence (looked up): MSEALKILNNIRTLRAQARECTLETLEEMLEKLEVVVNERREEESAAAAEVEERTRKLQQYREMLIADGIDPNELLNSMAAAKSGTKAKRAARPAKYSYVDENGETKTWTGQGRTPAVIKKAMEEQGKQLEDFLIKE
Assay: EMSA
Conditions: 20 mM Tris-HCl, 1 mM EDTA, 100 ug/mL BSA, 1 mM DTT, 10% glycerol, 80 mM NaCl, 25 C, 30 min; 50 ng DNA in 20 uL, protein 0-9.76 uM; pH 7.5 or 5.5 in Fig. 5B; recombinant protein; residues 1-137; protein details: N-terminal 6xHis; probe letters rebuilt from the primers and the genome

“CGACAGACGGTGAGTATCCCCCCTGCCAATAAGCTCTTTTTTGTGCGGTGCCTCAAGGAAAATTTAAGTTGAGATAATTAAAACGTGTGCTTAATAAAGCGTAATTTTGAATTCCTTACATTCCTGGCTATTGCACAACTGAATTTATCGCTCTATTATTAGCTCAACAAACCACCCCAATATAAGTTTGAGATTACTACAATGAGCGAAGCACTTAAAATTCTGAACAACATCCGTACTCTTCGTGCGCAGGCAAGAGAATGTACTCTGGAAACGCTTGAAGAAATGCTGGAAAAATTAGAAGTTGTCGTTAATGAGCGTCGTGAAGAAGAAAGCGCTGCTGCTGCTGAAGTGGAAGAACGCA (double strand) [hns promoter (Phns)]”: binds.

Protein sequences can lack the tags named with them.
